Measured values as given in article PMC10303846, “In vitro antiplasmodial activity and toxicological profile of extracts, fractions and chemical constituents of leaves and stem bark from Dacryodes edulis (Burseraceae)” (BMC Complementary Medicine and Therapies, 2023).

System: RAW 264.7 cells
Experiment: Resazurin-based in vitro cytotoxicity assay
Assay type: cell-based
Conditions: for SI Pf3D7: CC50 Raw cells / IC50 Pf3D7; for SI PfDd2: CC50 Raw cells / IC50 PfDd2
Method: The cytotoxicity profile of extracts, fractions and isolated compounds was assessed using the resazurin-based assay essentially as previously described against RAW 264.7 cells duly cultivated in complete Dulbecco′s Modified Eagle′s Medium (DMEM) that contain 13.5 g/L of DMEM (Sigma Aldrich), 10% fetal bovine serum (Sigma Aldrich), 0.2% sodium bicarbonate (w/v) (Sigma Aldrich) and 50 μg/mL of gentamicin (Sigma Aldrich). Globally, macrophages (Raw cells) were seeded into 96-well cell-culture flat-bottomed plates at a density of 10^4 cells in 100 μL of complete medium/well and placed in incubation for 24 h at 37℃, and 5% CO2 allowing cell adhesion. Following cell adhesion, ten microliters of each serially diluted test sample solution was added to assay plates and left in incubation for 48 h under the same experimental conditions. Growth control (1% DMSO-100% growth) and positive control wells (podophyllotoxin at 20 μM) were included in the experimental plates. Cell proliferation was checked by adding 10 μL of a stock solution of resazurin (0.15 mg/mL in sterile PBS) to each well followed by an additional incubation of 4 h in the same culture conditions. Fluorescence was then read using Tecan Infinite M200 fluorescence multiwell plate reader (Tecan) at an excitation/emission of 530/590 nm. The results were expressed as 50% cytotoxic concentrations (CC50) and selectivity indices (CC50 Mammalian cell/IC50 Pf3D7) were calculated for each test substance.

| SMILES | SI Pf3D7 | SI PfDd2 |
| --- | --- | --- |
| CCOC(=O)c1cc(O)c(O)c(O)c1 [compound 10, Ethyl gallate] | > 87 | > 35 |
| COc1c(O)cc2c(=O)oc3c(OC)c(O)cc4c(=O)oc1c2c34 [compound 3, 3,3′-O-dimethylellagic acid] | > 85 | > 74 |
| COc1c(O)cc2c(=O)oc3c(OC)c(OC4OCC(O)C(OC(=O)c5cc(O)c(O)c(O)c5)C4O)cc4c(=O)oc1c2c34 [compound 5, 3,3″-di-O-methylellagic acid 4-O-(3″-galloyl)-β-D-xylopyranoside] | > 87 | – |
